PubChem BioAssay AID624099 | ICCB-Longwood – 2012

Aim: 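Host factors E2 relies on to silence an HPV18 LCR reporter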 (primary screen)
System: human C33A cervical carcinoma cells (HPV-negative) stably expressing BPV1 E2 and an HPV18 LCR luciferase reporter
Knock-down reagent: siRNA pool against human genes, 40 nM
Duration: 72 h
Detection: 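HPV18 LCR reporter light per well, converted to plate-wise z-scores that exclude control wells, and averaged over triplicate plates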
Direction: mean z-score and z-score: higher = stronger reporter signal, weaker E2 silencing
Active means: 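Hit if mean z-score reaches 2 and two or more of three replicate z-scores also reach 2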
Here is an unselected part of about 21,000 reagents. In the full data, 497 (2.4%) were called active. 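Higher z means weaker E2 silencing; only reporter increases were scored, and knock-downs that hurt cell survival may mask genuine repressor factors.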 Unmarked entries are inactive. Reagents against one gene are numbered here.

Gene,pool no.,mean z-score,"z-score, replicate A","z-score, replicate B","z-score, replicate C"
ATXN7L3 (ataxin 7 like 3),1,2.97 (active),2.78,3.14,3
TSLIG3A (tRNA splicing ligase complex subunit 3A),1,0.47,0.32,0.57,0.51
"SPTA1 (spectrin alpha, erythrocytic 1)",1,-0.5,-0.64,-0.47,-0.41
"PPY2P (pancreatic polypeptide 2, pseudogene)",1,-1.42,-1.6,-1.14,-1.52
UPRT (uracil phosphoribosyltransferase homolog),1,-1.94,-1.88,-1.68,-2.26
ZNF562 (zinc finger protein 562),1,0.36,0.09,0.33,0.67
HDDC2 (HD domain containing 2),1,-0.1,-0.52,0.4,-0.16
CHMP2A (charged multivesicular body protein 2A),1,0.05,-0.41,0.21,0.34
PLAAT3 (phospholipase A and acyltransferase 3),1,0.38,0.3,0.64,0.2
FAM221A (family with sequence similarity 221 member A),1,0.01,-0.4,0.15,0.27
SCN2A (sodium voltage-gated channel alpha subunit 2),1,-1.31,-1.43,-1.37,-1.12
MTTP (microsomal triglyceride transfer protein),1,-0.65,-1.07,-0.93,0.05
MAGEB6 (MAGE family member B6),1,0.17,0.32,-0.06,0.26
SNHG11 (small nucleolar RNA host gene 11),1,-0.12,-0.24,-0.02,-0.1
MCMBP (minichromosome maintenance complex binding protein),1,1.44,1.99,1.36,0.98
SLTM (SAFB like transcription modulator),1,-1.1,-1.13,-1.37,-0.8
"NTPCR (nucleoside-triphosphatase, cancer-related)",1,-0.13,-0.18,-0.23,0.03
DUX5 (double homeobox 5),1,0.67,0.6,0.74,0.69
VAMP2 (vesicle associated membrane protein 2),1,-0.02,0.4,-0.29,-0.17
"SSPOP (SCO-spondin, pseudogene)",1,-1.26,-1.25,-1.54,-1
"SSPOP (SCO-spondin, pseudogene)",2,0.97,1.1,0.67,1.14
"SSPOP (SCO-spondin, pseudogene)",3,0.42,0.19,1.03,0.02
CCNL2 (cyclin L2),1,-0.39,-0.67,-0.14,-0.37
PREB (prolactin regulatory element binding),1,-0.02,-0.15,-0.02,0.1
IL1RAP (interleukin 1 receptor accessory protein),1,0.1,0.14,-0.15,0.31
EIF3LP3,1,-1.76,-1.9,-1.97,-1.42
"MUC1 (mucin 1, cell surface associated)",1,0.03,0.43,-0.13,-0.2
CKAP4 (cytoskeleton associated protein 4),1,-0.76,-0.64,-0.77,-0.86
INHA (inhibin subunit alpha),1,1.34,1.12,1.4,1.49
LOC389031 (retired record),1,0.35,0.66,0.46,-0.06
PUS7 (pseudouridine synthase 7),1,1.94,1.74,1.89,2.18
LOC343717 (retired record),1,0.91,0.85,0.98,0.9
EBPL (EBP like),1,0.17,0.61,0.02,-0.12
LOC400627,1,2.29 (active),2.66,1.68,2.53
SERINC5 (serine incorporator 5),1,0.23,0.28,0.25,0.17
ACTRT1 (actin related protein T1),1,-0.66,-0.56,-0.54,-0.88
SYT14P1 (synaptotagmin 14 pseudogene 1),1,-1.37,-1.25,-1.73,-1.13
GAS7 (growth arrest specific 7),1,-0.71,-0.79,-0.69,-0.66
KIAA0232,1,0.57,0.15,0.76,0.8
SLC25A12,1,-0.59,-0.47,-0.57,-0.74
GLMN (glomulin),1,-0.54,-0.56,-0.49,-0.57
C22orf39 (chromosome 22 open reading frame 39),1,0.2,0.43,0.02,0.16
MMRN2 (multimerin 2),1,-0.73,-0.78,-0.72,-0.67
VGLL3 (vestigial like family member 3),1,-0.7,-1,-0.84,-0.26
ANKIB1 (ankyrin repeat and IBR domain containing 1),1,1.72,1.86,1.69,1.61
OLFM4 (olfactomedin 4),1,0.11,0.04,0.04,0.26
ZBED3 (zinc finger BED-type containing 3),1,1.04,1.38,0.77,0.96
LDLRAD1 (low density lipoprotein receptor class A domain containing 1),1,-1.42,-1.3,-1.21,-1.75
PLA2R1 (phospholipase A2 receptor 1),1,0.05,-0.14,0,0.29
LOC285721 (retired record),1,2.14 (active),2.29,2.18,1.95
SPEG (striated muscle enriched protein kinase),1,0.19,0.12,0.38,0.07
KRTAP4-4 (keratin associated protein 4-4),1,-0.97,-0.6,-1.39,-0.92
THAP5P1 (THAP domain containing 5 pseudogene 1),1,-0.43,-0.6,-0.04,-0.65
LOC139263 (retired record),1,-0.3,-0.16,-0.32,-0.43
NHLRC3 (NHL repeat containing 3),1,-0.08,-0.44,0,0.19
LOC388489 (retired record),1,0.52,0.57,0.51,0.48
SRSF1 (serine and arginine rich splicing factor 1),1,-0.49,-0.75,-0.48,-0.23
SULT1A2 (sulfotransferase family 1A member 2),1,-0.82,-0.81,-0.8,-0.85
CD86 (CD86 molecule),1,0.52,0.61,0.39,0.54
SPOCK1,1,-0.05,0,-0.04,-0.12
KDM2B (lysine demethylase 2B),1,-0.17,-0.39,-0.06,-0.05
CALM3 (calmodulin 3),1,0.18,-0.22,0.43,0.33
MS4A2 (membrane spanning 4-domains A2),1,0.14,0.28,0.44,-0.3
CCDC149 (coiled-coil domain containing 149),1,-0.49,-0.62,-0.39,-0.46
FLYWCH1 (FLYWCH-type zinc finger 1),1,1.46,1.16,1.8,1.41
NKX3-2 (NK3 homeobox 2),1,1.36,1.1,1.13,1.85
SAMD3 (sterile alpha motif domain containing 3),1,0.77,0.84,0.83,0.65
TAS2R40 (taste 2 receptor member 40),1,-0.19,-0.26,-0.23,-0.09
LOC387946 (retired record),1,0.18,0.16,0.43,-0.04
ZNF76 (zinc finger protein 76),1,-0.49,-0.29,-0.42,-0.75
ATG101 (autophagy related 101),1,0.75,0.92,0.63,0.69
STX11 (syntaxin 11),1,-1.24,-1.18,-1.35,-1.17
KHK (ketohexokinase),1,2.65 (active),2.83,2.55,2.57

Sorted by “z-score, replicate C” (low to high): some entries from above
Gene,pool no.,mean z-score,"z-score, replicate A","z-score, replicate B","z-score, replicate C"
"SSPOP (SCO-spondin, pseudogene)",1,-1.26,-1.25,-1.54,-1
CCNL2 (cyclin L2),1,-0.39,-0.67,-0.14,-0.37
VAMP2 (vesicle associated membrane protein 2),1,-0.02,0.4,-0.29,-0.17
"SSPOP (SCO-spondin, pseudogene)",3,0.42,0.19,1.03,0.02
PREB (prolactin regulatory element binding),1,-0.02,-0.15,-0.02,0.1
IL1RAP (interleukin 1 receptor accessory protein),1,0.1,0.14,-0.15,0.31
"SSPOP (SCO-spondin, pseudogene)",2,0.97,1.1,0.67,1.14
